Share of PSTVd loop 6 variants by leaf site

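A pool of all variants was put on leaves of three Nicotiana benthamiana plants. Progeny were sequenced from the inoculated region (day 5), the margin of the inoculated leaf (day 10) and systemic leaves (day 12).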

The pool varies loop 6 of the PSTVd intermediate strain in the pattern UNNNCGNNNG; wild type is UGACCGCGAG (upper and lower strand joined, each 5' to 3', the first 5 letters being the upper strand, closing pairs included).

Values are reads per thousand in the sample; higher means more abundant, 0 means not found. Each value is the mean of three plants. "Pool" is the share in the plasmid pool used as inoculum, on the same scale. The inoculated region was read from the minus strand, the other sites from the plus strand.

UAAUCGUCAG (pool 0.235) gave inoculated region 0.131; leaf margin 0.00920; systemic leaves 0.
UGCCCGCGGG (pool 0.248) gave inoculated region 0.118; leaf margin 0.0155; systemic leaves 0.
UGGUCGCCCG (pool 0.301) gave inoculated region 0.101; leaf margin 0; systemic leaves 0.
UUAGCGGAAG (pool 0.118) gave inoculated region 0.520; leaf margin 0.0966; systemic leaves 0.
UCGCCGUAGG (pool 0.144) gave inoculated region 0.0938; leaf margin 0.0232; systemic leaves 0.
UGGGCGUCUG (pool 0.209) gave inoculated region 0.106; leaf margin 0.0155; systemic leaves 0.
UUUGCGUUGG (pool 0.183) gave inoculated region 0.0643; leaf margin 0; systemic leaves 0.
UCAUCGCCAG (pool 0.170) gave inoculated region 0.0905; leaf margin 0.00920; systemic leaves 0.
UGGCCGUAAG (pool 0.144) gave inoculated region 0.0963; leaf margin 0.0247; systemic leaves 0.
UGGGCGUCCG (pool 0.170) gave inoculated region 0.0596; leaf margin 0; systemic leaves 0.
UUCGCGUACG (pool 0.288) gave inoculated region 0.0771; leaf margin 0; systemic leaves 0.
UAGCCGGACG (pool 0.183) gave inoculated region 0.119; leaf margin 0.110; systemic leaves 0.
UUGUCGGGGG (pool 0.196) gave inoculated region 0.0943; leaf margin 0.00920; systemic leaves 0.
UCGACGGUCG (pool 0.170) gave inoculated region 0.101; leaf margin 0; systemic leaves 0.
UACCCGCACG (pool 0.209) gave inoculated region 0.596; leaf margin 0.0982; systemic leaves 0.
UACCCGGACG (pool 0.275) gave inoculated region 0.0948; leaf margin 0.0184; systemic leaves 0.
UAUACGACGG (pool 0.314) gave inoculated region 0.0777; leaf margin 0.0155; systemic leaves 0.
UAGACGACCG (pool 0.170) gave inoculated region 0.0884; leaf margin 0.00773; systemic leaves 0.
UUAGCGUACG (pool 0.248) gave inoculated region 0.0659; leaf margin 0; systemic leaves 0.
UAAGCGGUUG (pool 0.261) gave inoculated region 0.0836; leaf margin 0.00773; systemic leaves 0.
UGCACGAACG (pool 0.275) gave inoculated region 0.0665; leaf margin 0; systemic leaves 0.
UGCCCGAGCG (pool 0.157) gave inoculated region 0.136; leaf margin 0; systemic leaves 0.
UAGACGCUAG (pool 0.222) gave inoculated region 0.113; leaf margin 0.00920; systemic leaves 0.
UGAUCGUGCG (pool 0.261) gave inoculated region 0.102; leaf margin 0.00920; systemic leaves 0.
UUGACGUGCG (pool 0.196) gave inoculated region 0.0940; leaf margin 0; systemic leaves 0.
UAACCGGGGG (pool 0.209) gave inoculated region 0.0949; leaf margin 0.0169; systemic leaves 0.
UUAGCGAACG (pool 0.288) gave inoculated region 0.101; leaf margin 0.0184; systemic leaves 0.
UAUACGCGCG (pool 0.222) gave inoculated region 0.657; leaf margin 0.0951; systemic leaves 0.
UGGGCGAGAG (pool 0.261) gave inoculated region 0.108; leaf margin 0.00773; systemic leaves 0.

3 of these entries, quoted again:

* UGGGCGUCCG (pool 0.170) = inoculated region 0.0596; leaf margin 0; systemic leaves 0
* UAACCGGGGG (pool 0.209) = inoculated region 0.0949; leaf margin 0.0169; systemic leaves 0
* UAAUCGUCAG (pool 0.235) = inoculated region 0.131; leaf margin 0.00920; systemic leaves 0

Samples held 36,220 to 57,551 reads, so the smallest values rest on one or two reads. For reference, wild type rose from 20.7 per thousand in the pool to 195, 198, 203 (inoculated region), 629, 591, 734 (leaf margin) and 942, 870, 868 (systemic leaves). Sequences that differ at fixed positions probably stem from PCR or sequencing errors, and defective variants can be carried along by functional ones.

Reference: Wu et al. 2024, doi:10.1371/journal.ppat.1012142.